The numbers were not newly measured in paper PMC10840515, which cites them from elsewhere.

The structures appear in SMILES notation.

The test system of this data set is T cells of individuals. Conditions: healthy unexposed individuals; cited from earlier work.

In the case of `CC[C@H](C)[C@H](NC(=O)CNC(=O)[C@@H](NC(=O)[C@H](CC(C)C)NC(=O)[C@H](C)NC(=O)[C@H](CCCNC(=N)N)NC(=O)[C@H](CC(N)=O)NC(=O)[C@H](CC(C)C)NC(=O)[C@H](CCC(N)=O)NC(=O)[C@@H](N)[C@@H](C)O)[C@@H](C)O)C(=O)N[C@@H](C)C(=O)N[C@H](C(=O)N[C@@H](CCC(=O)O)C(=O)N[C@@H](CCC(N)=O)C(=O)N[C@@H](CC(=O)O)C(=O)O)C(C)C`, the responding individuals is recorded as 21% and the “responding individuals / tested” value is given as 3/14.
